# Reference: patent publication US20140288040A1, “SUBSTITUTED BENZYLAMINE COMPOUNDS, THEIR USE IN MEDICINE, AND IN PARTICULAR THE TREATMENT OF HEPATITIS C VIRUS (HCV) INFECTION” (ASTEX THERAPEUTICS LIMITED, priority 2011, published 2014)
# By UniProt entry, the sequences of proteins in these tests, tags left out. Residues count along the entry.
# UniProt P26663, 1027-1657 limits assumed: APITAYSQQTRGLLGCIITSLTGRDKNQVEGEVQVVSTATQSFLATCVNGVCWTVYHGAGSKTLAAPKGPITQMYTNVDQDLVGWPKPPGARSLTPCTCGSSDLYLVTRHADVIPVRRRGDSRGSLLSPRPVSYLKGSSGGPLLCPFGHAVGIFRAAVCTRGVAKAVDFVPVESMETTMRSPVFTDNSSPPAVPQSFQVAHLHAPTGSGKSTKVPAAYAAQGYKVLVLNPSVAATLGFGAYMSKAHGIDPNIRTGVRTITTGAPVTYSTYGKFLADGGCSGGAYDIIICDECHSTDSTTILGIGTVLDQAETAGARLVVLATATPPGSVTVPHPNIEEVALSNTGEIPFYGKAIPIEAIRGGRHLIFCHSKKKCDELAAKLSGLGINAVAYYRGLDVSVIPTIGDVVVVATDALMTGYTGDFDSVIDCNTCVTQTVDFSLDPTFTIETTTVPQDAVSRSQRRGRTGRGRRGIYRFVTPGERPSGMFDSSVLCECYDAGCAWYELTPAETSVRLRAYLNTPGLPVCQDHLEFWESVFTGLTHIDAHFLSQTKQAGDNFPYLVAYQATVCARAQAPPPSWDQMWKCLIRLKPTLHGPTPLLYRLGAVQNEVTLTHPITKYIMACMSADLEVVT
# UniProt P26663, 1658-1711 partner limits assumed: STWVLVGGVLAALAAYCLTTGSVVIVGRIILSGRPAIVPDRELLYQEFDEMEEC
# Target: HCV NS3 protease (full length NS34a) (Hepatitis C virus genotype 1b, UniProt P26663)
# Assay: HCV NS3 protease assay (FRET, full length NS34a)
# Assay type: biochemical
# Conditions: read-out: Activity IC50; protease activity of full length NS34a, FRET peptide substrate; tested form: HCl
structure (smiles),measurement,value
C#Cc1ccc(Oc2c(Cl)ccc([C@H](N)CC)c2F)cc1,IC50,0.61 µM
